## Potato spindle tuber viroid, stem 15: variant abundance in plants

The pool varies stem 15 of the PSTVd intermediate strain in the pattern CUGGAGCGAUNGNNUNNG; wild type is CUGGAGCGAUCGCUUCGG (upper and lower strand joined, each 5' to 3', the first 9 letters being the upper strand).

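Three N. benthamiana plants were inoculated with the whole mutant pool. Samples came from the inoculated region at 5 days, the leaf margin at 10 and upper systemic leaves at 12.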

Numbers give reads per thousand; 0 = not seen among the reads, higher = more abundant. Each site shows the three plants. "Pool" is the share in the plasmid pool used as inoculum, on the same scale. The inoculated region was read from the minus strand, the other sites from the plus strand. IR is the inoculated region, LM the leaf margin, Sys the systemic leaves. Wild type was 10.2 per thousand in the pool and the most common sequence in every sample (inoculated region 285, 367, 312; leaf margin 785, 865, 782; systemic leaves 854, 898, 915).

- CUGGAGCGAUUGUCUAGG (pool 0.889) = IR 1.88 / 0.942 / 1.64; LM 0.806 / 0.0273 / 0.745; Sys 0 / 0 / 0
- CUGGAGCGAUCGUCUUAG (pool 0.824) = IR 4.19 / 1.80 / 1.53; LM 0.434 / 0.572 / 0.777; Sys 0.653 / 0.620 / 0.399
- CUGGAGCGAUGGACUUGG (pool 0.808) = IR 0.274 / 0.188 / 0.261; LM 0.0827 / 0 / 0.0317; Sys 0 / 0 / 0
- CUGGAGCGAUAGUUUACG (pool 2.02) = IR 0.724 / 0.503 / 1.04; LM 0.0620 / 0 / 0.0317; Sys 0 / 0 / 0.0199
- CUGGAGCGAUAGCAUCAG (pool 0.792) = IR 0.254 / 0.188 / 0.316; LM 0.0827 / 0.0273 / 0; Sys 0 / 0 / 0
- CUGGAGCGAUGGGCUCAG (pool 0.857) = IR 0.196 / 0.272 / 0.242; LM 0.0207 / 0.0545 / 0.0317; Sys 0 / 0 / 0
- CUGGAGCGAUGGUUUACG (pool 0.792) = IR 0.294 / 0.168 / 0.391; LM 0.0414 / 0.0545 / 0; Sys 0 / 0 / 0
- CUGGAGCGAUAGAUUUUG (pool 0.743) = IR 0.215 / 0.356 / 0.242; LM 0 / 0.0273 / 0; Sys 0 / 0 / 0
- CUGGAGCGAUCGCUUUCG (pool 0.743) = IR 0.274 / 0.335 / 0.149; LM 0.0414 / 0.0818 / 0.0159; Sys 0 / 0 / 0
- CUGGAGCGAUGGGAUCGG (pool 0.711) = IR 0.313 / 0.272 / 0.186; LM 0 / 0 / 0; Sys 0 / 0 / 0
- CUGGAGCGAUGGCUUCGG (pool 0.986) = IR 0.313 / 0.314 / 0.316; LM 0.289 / 0.0545 / 0.0476; Sys 0 / 0.0222 / 0.0797
- CUGGAGCGAUUGAUUAUG (pool 2.49) = IR 1.13 / 0.921 / 1.17; LM 0.0414 / 0.0545 / 0.127; Sys 0 / 0 / 0.0199
- CUGGAGCGAUAGCAUGUG (pool 0.873) = IR 0.235 / 0.251 / 0.372; LM 0.0207 / 0.0273 / 0.0159; Sys 0 / 0 / 0
- CUGGAGCGAUGGGGUACG (pool 0.776) = IR 0.333 / 0.168 / 0.372; LM 0.0414 / 0 / 0.0317; Sys 0 / 0 / 0
- CUGGAGCGAUCGCCUACG (pool 0.711) = IR 0.313 / 0.272 / 0.316; LM 0.0827 / 0 / 0.0159; Sys 0 / 0 / 0
- CUGGAGCGAUCGCCUAUG (pool 0.792) = IR 0.235 / 0.230 / 0.316; LM 0.103 / 0.0545 / 0.0317; Sys 0 / 0 / 0
- CUGGAGCGAUCGUAUAAG (pool 0.905) = IR 0.235 / 0.293 / 0.335; LM 0.0414 / 0 / 0.0317; Sys 0 / 0 / 0
- CUGGAGCGAUGGUGUUCG (pool 0.646) = IR 0.489 / 0.314 / 0.261; LM 0.0620 / 0.0273 / 0.0317; Sys 0 / 0 / 0
- CUGGAGCGAUCGUUUCGG (pool 0.921) = IR 13.0 / 12.9 / 22.7; LM 11.1 / 6.84 / 55.6; Sys 6.04 / 7.18 / 23.2
- CUGGAGCGAUGGGUUCGC (pool 0.776) = IR 0.470 / 0.544 / 0.447; LM 0 / 0 / 0; Sys 0 / 0 / 0.0399
- CUGGAGCGAUAGUUUGCG (pool 0.857) = IR 0.313 / 0.209 / 0.242; LM 0.0620 / 0.0273 / 0.0317; Sys 0 / 0 / 0
- CUGGAGCGAUCGGCUGCG (pool 0.873) = IR 0.411 / 0.147 / 0.279; LM 0.0620 / 0.0818 / 0.0159; Sys 0 / 0 / 0
- CUGGAGCGAUUGUGUCAG (pool 0.889) = IR 1.96 / 0.921 / 1.71; LM 0.600 / 0.0545 / 0.888; Sys 0 / 0 / 0

Sequences that differ at fixed positions probably stem from PCR or sequencing errors, and defective variants can be carried along by functional ones. Samples held 36,693 to 63,082 reads, so the smallest values rest on one or two reads.

Values reported by Wu et al. 2024 (doi:10.1371/journal.ppat.1012142).